Experimental data: PubChem BioAssay AID1259414 (Drosophila RNAi Screening Center, 2018)
Aim: 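Host factors increasing or decreasing Wolbachia levels in cultured fly cells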 (primary screen). Cell system: Drosophila JW18 cells infected with Wolbachia. Reagents: long dsRNA against Drosophila genes, 0.25 µg dsRNA per well of a 384-well plate. Duration: 5 days. Challenge: cells persistently infected with Wolbachia before knock-down; no added drug. Detection: 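Automated imaging of bacterial rRNA staining divided by host cell count, reported as plate-normalised robust z-score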. Scale: Wolbachia per cell robust z: higher = more Wolbachia per host cell than the plate typical. Rule for the call: 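Active if absolute robust z reaches 1.5 in two or more of three replicates, leaving out multi- or no-target dsRNAs, genes unexpressed in JW18 and A1 wells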.
The screen tested about 24,000 reagents; below is a random part of those that have a named target and a result. In the full data, about 1,210 (5%) were called active. 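Inactive calls also include excluded dsRNAs with several or no targets, genes unexpressed in JW18, and well A1, regardless of score.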 Unmarked entries are inactive. Reagents against one gene are numbered here. Names joined by + are all predicted targets of the reagent. No sequences are given here.

| gene | reagent | Wolbachia per cell robust z, rep 1 | Wolbachia per cell robust z, rep 2 | Wolbachia per cell robust z, rep 3 |
| --- | --- | --- | --- | --- |
| kel | 1 | -0.755 | -1.14 | -0.748 |
| nompB | 1 | -0.124 | -0.236 | 0.957 |
| nompB | 2 | 0.78 | 1.05 | 1.03 |
| Cpr49Ad | 1 | -0.38 | 0.317 | -0.164 |
| CdGAPr | 1 | -1.96 | 0.595 | 0.525 |
| CG14851 | 1 | -4.42 | -1.71 | 0.763 |
| CG14851 | 2 | -0.713 | 0.686 | 0.881 |
| CG14851 | 3 | -1.32 | 0.0663 | -0.264 |
| CG14785 | 1 | 0.823 | 0.671 | -3.39 |
| CG17221 | 1 | 0.661 | -1.52 | 0.595 |
| CG17221 | 2 | 0.812 | -0.00219 | 0.305 |
| CG3226 | 1 | -0.492 | -0.0534 | -0.255 |
| mav | 1 | 1.06 | 0.262 | -3.96 |
| tadr | 1 | -0.0476 | 0.403 | 1.02 |
| Ostgamma | 1 | -0.621 (active) | -3.65 | -1.65 |
| IntS3 | 1 | 1.07 | 0.605 | 1.04 |
| CG5096 | 1 | -0.415 | -1.18 | -0.457 |
| Osi12 | 1 | -4.23 | 0.253 | 0.563 |
| ple | 1 | -0.426 | 0.193 | -1.37 |
| CheA86a | 1 | -0.475 | -0.615 | -0.0354 |
| CG14669 | 1 | -0.449 | 0.967 | 0.0143 |
| CG14669 | 2 | 0.0528 | -0.438 | -0.6 |
| CG14805 | 1 | 0.626 (active) | -4.86 | -2.14 |
| Cyp313a5 | 1 | -1.26 | 0.58 | 0.562 |
| Pmi + PGRP-LD | 1 | -0.746 | 0.467 | -1.38 |
| Pmi + PGRP-LD | 2 | 0.424 | -0.48 | 0.672 |
| Bub1 | 1 | 0.408 | -0.887 | -0.309 |
| Bub1 | 2 | -0.00315 | -0.597 | 0.77 |
| CG13113 | 1 | -0.677 | -0.508 | -7.15 |
| CG13113 | 2 | -0.572 | -1.16 | -1.22 |
| Cpr65Az | 1 | 0.019 | 0.481 | 0.721 |
| Cpr65Az | 2 | 0.681 | 0.652 | -0.689 |
| Cpr65Az | 3 | -6.46 | -8.5 | 0.00449 |
| CG34130 | 1 | -3.61 | -0.62 | 0.665 |
| Ns1 | 1 | 0.141 | 0.62 | 2.43 |
| Send1 | 1 | -8.3 | -0.476 | 0.544 |
| Send1 | 2 | -2.76 | -0.469 | -0.263 |
| CG6576 | 1 | 0.713 | 0.716 | 0.396 |
| CG6576 | 2 | -0.157 | -0.19 | -0.38 |
| CG31792 | 1 | 0.356 | 1.26 | -7.34 |
| Tsp29Fb | 1 | -0.718 | -0.733 | -1.55 |
| Tsp29Fb | 2 | 0.956 | -0.744 | 0.671 |
| CG8750 | 1 | -1.71 | -1.05 | -0.27 |
| Pex2 | 1 | 0.511 | -8.69 | 0.619 |
| CG15167 | 1 | 0.423 | 1.05 | 1.23 |
| CG3251 | 1 | 0.564 | 0.229 | 1.77 |
